Compound potency records, mixed from different reports. Data source: NIAID ChemDB in PubChem.

Shared fields: tests in culture; organism: Human herpesvirus 6

Blank or dashed fields: not listed here.

compound | strain | cells | method | setting | endpoint | tested at | result
O=C(O)P(=O)(O)O | U1102 (TYPE 6A) | HSB-2 | cytopathic effect | - | EC50 | - | 63 µM
O=c1[nH]c(=O)n([C@H]2C[C@H](O)[C@@H](CO)O2)cc1/C=C/Br | GS | HSB-2 | antigen / flow cytometry | - | EC50 | - | >1 µM
Nc1nc2c(ncn2CCC(CO)CO)c(=O)[nH]1 | 729 | HUMAN CORD BLOOD CELL | antigen | 6 d | inhibition | 100 µM | 29%
Nc1ccn(C[C@@H](CO)OCP(=O)(O)O)c(=O)n1 | GS | HSB-2 | cytopathic effect | - | EC50 | - | 4.6 µg/mL
O=C(O)CP(=O)(O)O | U1102 (TYPE 6A) | HSB-2 | cytopathic effect | - | EC50 | - | >51 µM
Nc1ccn(C[C@@H](CO)OCP(=O)(O)O)c(=O)n1 | - | Human T-lymphoblasts | - | - | EC50 | - | 2.9 µM
COC(=O)[C@H](C)NP(=O)(OC[C@H]1C/C1=C/n1cnc2c(N)nc(N)nc21)Oc1ccccc1 | GS | HSB-2 | ELISA | - | EC50 | - | 20 µM
Nc1nc(N)c2ncn(C[C@@H](CO)OCP(=O)(O)O)c2n1 | GS | HSB-2 | cytopathic effect | - | EC50 | - | 26 µM
Nc1ncc2c(ncn2COC(CO)CO)n1 | U1102 (TYPE 6A) | HSB-2 | cytopathic effect | - | EC50 | - | 0.27 µM
O=c1[nH]c(=O)n([C@@H]2O[C@H](CO)[C@@H](O)[C@@H]2O)cc1/C=C/Br | GS | HSB-2 | cytopathic effect | - | EC50 | - | >75 µM
Nc1ncnc2c1ncn2C[C@@H](CO)OCP(=O)(O)O | GS | HSB-2 | cytopathic effect | - | EC50 | - | 3.1 µg/mL
COC(=O)[C@H](C)NP(=O)(OC[C@H]1C/C1=C\n1cnc2c(N)nc(N)nc21)Oc1ccccc1 | GS | HSB-2 | ELISA | - | EC50 | - | 55 µM
Nc1nc(=O)n([C@@H]2O[C@H](CO)[C@@H](O)[C@@H]2F)cc1I | GS | HSB-2 | antigen / flow cytometry | - | EC50 | - | >1 µM
O=c1[nH]c(=O)n([C@H]2C[C@H](O)[C@@H](CO)O2)cc1C(F)(F)F | U1102 (TYPE 6A) | HSB-2 | cytopathic effect | - | EC50 | - | >20 µM
Nc1nc2c(ncn2C[C@H](CO)OCP(=O)(O)O)c(=O)[nH]1 | GS | HSB-2 | antigen / flow cytometry | - | EC50 | - | 6.2 µM
Nc1nc2c(ncn2C[C@]2(CO)C[C@H]2CO)c(=O)[nH]1 | - | Human cord blood lymphocytes | - | - | EC50 | - | 0.65 µM
O=c1[nH]c(=O)n([C@H]2C[C@H](O)[C@@H](CO)O2)cc1I | GS | HSB-2 | antigen / flow cytometry | - | EC50 | - | >1500 µM
Nc1ccn(C[C@H]2COP(=O)(O)CO2)c(=O)n1 | U1102 (TYPE 6A) | HSB-2 | cytopathic effect | - | EC50 | - | 38 µM

For reference, 2 entries again:

compound,strain,cells,method,setting,endpoint,tested at,result
O=c1[nH]c(=O)n([C@@H]2O[C@H](CO)[C@@H](O)[C@@H]2O)cc1/C=C/Br,GS,HSB-2,cytopathic effect,-,EC50,-,>75 µM
COC(=O)[C@H](C)NP(=O)(OC[C@H]1C/C1=C\n1cnc2c(N)nc(N)nc21)Oc1ccccc1,GS,HSB-2,ELISA,-,EC50,-,55 µM

ECn: concentration that inhibits the pathogen or its effect by n%. Percent inhibition refers to the dose given; in toxicity tests it is the harm to the cells. Lines come from different laboratories, so protocols vary.